Results of unrelated studies side by side (data: NIAID ChemDB).

Shared fields: tests in culture; species: Mycobacterium avium complex; read-out: MIC

An empty or dashed field is not shown. Rows are shuffled and stem from different studies.

structure	strain or isolate	read by	value
CC[C@H]1OC(=O)[C@H](C)[C@@H](O[C@H]2C[C@@](C)(OC)[C@@H](O)[C@H](C)O2)[C@H](C)[C@@H](O[C@@H]2O[C@H](C)C[C@H](N(C)C)[C@H]2O)[C@](C)(OC)C[C@@H](C)C(=O)[C@H](C)[C@@H](O)[C@]1(C)O	3212		2 µg/mL
CC[C@@H](CO)NCCN[C@@H](CC)CO	1056		8 µg/mL
CN[C@@H]1[C@H](O[C@H]2[C@H](O[C@H]3[C@H](O)[C@@H](O)[C@H](N=C(N)N)[C@@H](O)[C@@H]3N=C(N)N)O[C@@H](C)[C@]2(O)C=O)O[C@@H](CO)[C@H](O)[C@H]1O	13008 (serotype 20)		0.8 µg/mL
Cc1ccc(CSc2nc3ccccc3[nH]2)cc1	MY330/88		62 µM
C[C@@H]1CN(c2c(F)c(N)c3c(=O)c(C(=O)O)cn(C4CC4)c3c2F)C[C@H](C)N1	13	broth dilution	2 µg/mL
CCSc1nc2ccccc2[nH]1	MY330/88		1000 µM
NCC[C@H](O)C(=O)N[C@@H]1C[C@H](N)[C@@H](O[C@H]2O[C@H](CN)[C@@H](O)[C@H](O)[C@H]2O)[C@H](O)[C@H]1O[C@H]1O[C@H](CO)[C@@H](O)[C@H](N)[C@H]1O	3219		32 µg/mL
Clc1cccc(CSc2nc3ccccc3[nH]2)c1	MY330/88		62 µM
CO[C@H]1/C=C/O[C@@]2(C)Oc3c(C)c(O)c4c(O)c(c(/C=N/N5CCN(C/C=C/c6ccccc6)CC5)c(O)c4c3C2=O)NC(=O)/C(C)=C\C=C\[C@H](C)[C@H](O)[C@@H](C)[C@@H](O)[C@@H](C)[C@H](OC(C)=O)[C@@H]1C	SK-47		0.12 µg/mL
NC[C@H]1O[C@H](O[C@H]2[C@H](O[C@@H]3O[C@H](CO)[C@@H](O)[C@H]3O)[C@@H](O)[C@H](N)C[C@@H]2N)[C@H](N)[C@@H](O)[C@@H]1O	TMC 1467		<0.01 µg/mL
CO[C@H]1/C=C/O[C@@]2(C)Oc3c(C)c(O)c4c(O)c(c5c(c4c3C2=O)NC2(CCN(CC(C)C)CC2)N=5)=NC(=O)/C(C)=C\C=C\[C@H](C)[C@H](O)[C@@H](C)[C@@H](O)[C@@H](C)[C@H](OC(C)=O)[C@@H]1C	3350-4		0.063 µg/mL
COc1ccc(CSc2nc3ccccc3[nH]2)cc1	MY330/88		32 µM
NCCC[C@H](N)CC(=O)N[C@H]1CNC(=O)[C@H]([C@H]2C[C@H](O)NC(N)=N2)NC(=O)/C(=C/NC(N)=O)NC(=O)[C@H](CO)NC(=O)[C@H](CO)NC1=O	Isolate 53		25 µg/mL
CCn1cc(C(=O)O)c(=O)c2cc(F)c(N3CCNCC3)cc21	CIPT 140310030		20 µg/mL
FC(F)(F)c1ccc(CSc2nc3ccccc3[nH]2)cc1	MY330/88		>62 µM
NC[C@H]1O[C@H](O[C@H]2[C@H](O)[C@@H](O[C@H]3O[C@H](CO)[C@@H](O)[C@H](N)[C@H]3O)[C@H](N)C[C@@H]2N)[C@H](N)[C@@H](O)[C@@H]1O	Isolate 122		12.5 µg/mL
CN1CCN(c2cc3c(cc2F)c(=O)c(C(=O)O)cn3-c2ccc(F)cc2)CC1	3215		16 µg/mL
Fc1ccc(CSc2nc3ccccc3[nH]2)cc1	MY330/88		62 µM
NNC(=O)c1ccncc1	13008 (serotype 20)		3.2 µg/mL
NCCC(O)C(N)CC(=O)NC1CNC(=O)C(C2CCN=C(N)N2)NC(=O)/C(=C/NC(N)=O)NC(=O)C(CO)NC(=O)C(CO)NC1=O	Isolate 135		100 µg/mL
CO[C@H]1/C=C/O[C@@]2(C)Oc3c(C)c(O)c4c(O)c(c(/C=N/N5CCN(C6CCCC6)CC5)c(O)c4c3C2=O)NC(=O)/C(C)=C\C=C\[C@H](C)[C@H](O)[C@@H](C)[C@@H](O)[C@@H](C)[C@H](OC(C)=O)[C@@H]1C	Serotype 7		2.5 µg/mL
CN[C@@H]1[C@H](O[C@H]2[C@H](O[C@H]3[C@H](O)[C@@H](O)[C@H](N=C(N)N)[C@@H](O)[C@@H]3N=C(N)N)O[C@@H](C)[C@]2(O)C=O)O[C@@H](CO)[C@H](O)[C@H]1O	Isolate C-27		400 µg/mL
CC(C)CSc1nc2ccccc2[nH]1	MY330/88		>125 µM
CO[C@H]1/C=C/O[C@@]2(C)Oc3c(C)c(O)c4c(O)c(c(/C=N/N5CCN(C)CC5)c(O)c4c3C2=O)NC(=O)/C(C)=C\C=C\[C@H](C)[C@H](O)[C@@H](C)[C@@H](O)[C@@H](C)[C@H](OC(C)=O)[C@@H]1C	1069		8 µg/mL
CC1COc2c(N3CCN(C)CC3)c(F)cc3c(=O)c(C(=O)O)cn1c23	CIPT 140310023		20 µg/mL

Repeating the final 4 entries:

structure	strain or isolate	read by	value
CN[C@@H]1[C@H](O[C@H]2[C@H](O[C@H]3[C@H](O)[C@@H](O)[C@H](N=C(N)N)[C@@H](O)[C@@H]3N=C(N)N)O[C@@H](C)[C@]2(O)C=O)O[C@@H](CO)[C@H](O)[C@H]1O	Isolate C-27		400 µg/mL
CC(C)CSc1nc2ccccc2[nH]1	MY330/88		>125 µM
CO[C@H]1/C=C/O[C@@]2(C)Oc3c(C)c(O)c4c(O)c(c(/C=N/N5CCN(C)CC5)c(O)c4c3C2=O)NC(=O)/C(C)=C\C=C\[C@H](C)[C@H](O)[C@@H](C)[C@@H](O)[C@@H](C)[C@H](OC(C)=O)[C@@H]1C	1069		8 µg/mL
CC1COc2c(N3CCN(C)CC3)c(F)cc3c(=O)c(C(=O)O)cn1c23	CIPT 140310023		20 µg/mL